Data taken from PMC6222493, “NMR Structure of μ-Conotoxin GIIIC: Leucine 18 Induces Local Repacking of the N-Terminus Resulting in Reduced NaV Channel Potency” (2018).

By UniProt entry, the sequences of proteins in these tests, tags left out.
UniProt P15390, whole entry, looked up: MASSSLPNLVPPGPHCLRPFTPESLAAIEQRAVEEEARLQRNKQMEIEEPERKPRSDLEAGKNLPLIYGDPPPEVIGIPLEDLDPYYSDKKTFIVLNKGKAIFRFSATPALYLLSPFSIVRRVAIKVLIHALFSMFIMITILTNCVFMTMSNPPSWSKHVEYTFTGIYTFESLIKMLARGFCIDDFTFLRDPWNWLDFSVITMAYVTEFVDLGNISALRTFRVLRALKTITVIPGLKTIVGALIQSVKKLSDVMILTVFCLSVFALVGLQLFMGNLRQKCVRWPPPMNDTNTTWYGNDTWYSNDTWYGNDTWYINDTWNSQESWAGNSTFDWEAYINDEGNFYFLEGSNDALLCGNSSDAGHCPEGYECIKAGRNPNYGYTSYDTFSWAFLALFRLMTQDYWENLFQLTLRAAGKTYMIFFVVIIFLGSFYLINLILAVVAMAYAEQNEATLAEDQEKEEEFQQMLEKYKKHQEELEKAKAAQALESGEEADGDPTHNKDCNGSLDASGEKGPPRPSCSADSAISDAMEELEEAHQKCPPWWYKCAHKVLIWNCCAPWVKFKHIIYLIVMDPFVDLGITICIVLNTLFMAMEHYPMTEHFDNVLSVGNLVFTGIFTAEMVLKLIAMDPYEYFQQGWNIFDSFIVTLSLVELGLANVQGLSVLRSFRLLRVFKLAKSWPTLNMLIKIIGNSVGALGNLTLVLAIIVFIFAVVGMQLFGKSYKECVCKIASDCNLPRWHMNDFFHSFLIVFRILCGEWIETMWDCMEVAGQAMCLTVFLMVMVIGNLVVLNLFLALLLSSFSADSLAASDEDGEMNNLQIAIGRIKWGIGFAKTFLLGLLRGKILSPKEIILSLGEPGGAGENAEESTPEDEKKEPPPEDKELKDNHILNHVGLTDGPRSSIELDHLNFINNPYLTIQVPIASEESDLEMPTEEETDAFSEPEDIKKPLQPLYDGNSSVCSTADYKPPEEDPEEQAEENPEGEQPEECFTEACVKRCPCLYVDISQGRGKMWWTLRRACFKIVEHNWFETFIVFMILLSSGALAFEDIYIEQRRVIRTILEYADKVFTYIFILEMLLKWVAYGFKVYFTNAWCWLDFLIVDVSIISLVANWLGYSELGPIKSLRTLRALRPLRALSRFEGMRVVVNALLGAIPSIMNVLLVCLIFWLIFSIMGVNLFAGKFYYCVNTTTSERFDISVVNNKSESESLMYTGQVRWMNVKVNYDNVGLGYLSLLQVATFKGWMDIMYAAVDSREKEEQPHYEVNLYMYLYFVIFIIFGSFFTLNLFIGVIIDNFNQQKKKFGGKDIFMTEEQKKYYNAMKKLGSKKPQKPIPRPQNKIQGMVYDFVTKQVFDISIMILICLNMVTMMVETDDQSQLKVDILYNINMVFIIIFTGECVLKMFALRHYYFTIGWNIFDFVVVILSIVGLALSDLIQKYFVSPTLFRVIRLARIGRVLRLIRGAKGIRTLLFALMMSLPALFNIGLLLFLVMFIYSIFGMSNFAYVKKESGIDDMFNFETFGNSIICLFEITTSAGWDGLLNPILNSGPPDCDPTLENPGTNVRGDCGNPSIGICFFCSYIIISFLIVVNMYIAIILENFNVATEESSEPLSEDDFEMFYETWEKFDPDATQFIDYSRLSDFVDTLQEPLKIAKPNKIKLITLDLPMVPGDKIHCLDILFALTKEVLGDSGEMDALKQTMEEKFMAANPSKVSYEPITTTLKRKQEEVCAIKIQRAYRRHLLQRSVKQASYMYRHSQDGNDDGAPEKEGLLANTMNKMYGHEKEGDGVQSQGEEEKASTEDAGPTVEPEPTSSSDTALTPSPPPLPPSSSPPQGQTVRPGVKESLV

Experiments:
[1] = target: rNaV1.4 (Rattus norvegicus, UniProt P15390); experiment: whole-cell patch clamp, inhibition of rNaV1.4 Na+ currents; settings: for NaV1.4 current remaining (not inhibited): 1 µM peptide, TSA201 cells, mean ± SEM, n = 7 (GIIIC), n = 4 (GIIIA); for IC50: read-out: IC50, inhibition of rNaV1.4-mediated Na+ currents, TSA201 cells transiently transfected, room temperature, Vh −120 mV, step to −10 mV, mean ± SEM, n = 6 (GIIIC), n = 5 (GIIIA)
[2] = tested on: NaV1.2, NaV1.4, NaV1.5, NaV1.6, NaV1.7 and NaV1.8; experiment: NaV selectivity profile over the panel of VGSCs

Row | Structure (SMILES) | NaV1.4 current remaining (not inhibited) [1] | IC50 [1] | NaV selectivity (in words) ([2]; selectivity towards skeletal muscle sodium channels, panel at 1 µM) | NaV selectivity profile compared to GIIIA (in words) ([2]; when compared to GIIIA)
1 | C[C@H](NC(=O)[C@@H]1CSSC[C@@H]2NC(=O)[C@H](CCCCN)NC(=O)[C@H](CCCCN)NC(=O)[C@@H]3C[C@@H](O)CN3C(=O)[C@@H]3C[C@@H](O)CN3C(=O)[C@H]([C@@H](C)O)NC(=O)[C@@H]3CSSC[C@H](NC(=O)[C@H](CCCNC(=N)N)NC(=O)[C@H](CCC(N)=O)NC(=O)[C@@H]4C[C@@H](O)CN4C(=O)[C@H](CCCCN)NC(=O)[C@H](CSSC[C@H](NC(=O)[C@H](CC(=O)O)NC(=O)[C@@H](N)CCCNC(=N)N)C(=O)N3)NC(=O)[C@H](CCC(N)=O)NC(=O)[C@H](CCCNC(=N)N)NC(=O)[C@H](CC(=O)O)NC(=O)[C@H](CCCCN)NC2=O)C(=O)N1)C(N)=O | 5 ± 3% | 110 nM |  | 
2 | CC(C)C[C@@H]1NC(=O)[C@@H]2C[C@@H](O)CN2C(=O)[C@H](CCCCN)NC(=O)[C@@H]2CSSC[C@H](NC(=O)[C@H](CC(=O)O)NC(=O)[C@@H](N)CCCNC(=N)N)C(=O)N[C@H]3CSSC[C@H](NC(=O)[C@H](CCCCN)NC1=O)C(=O)N[C@H](C(=O)N[C@@H](C)C(N)=O)CSSC[C@H](NC(=O)[C@H](CCCCN)NC(=O)[C@H](CCCCN)NC(=O)[C@@H]1C[C@@H](O)CN1C(=O)[C@@H]1C[C@@H](O)CN1C(=O)[C@H]([C@@H](C)O)NC3=O)C(=O)N[C@@H](CCCCN)C(=O)N[C@@H](CC(=O)O)C(=O)N[C@@H](CCCNC(=N)N)C(=O)N[C@@H](CCCNC(=N)N)C(=O)N2 | 18 ± 2% | 286 nM | substantial selectivity towards skeletal muscle sodium channels | same NaV selectivity profile
